Data source: PubChem BioAssay AID1259414 (Drosophila RNAi Screening Center, 2018)
Test: 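Fly genes that alter Wolbachia amount inside host cells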 (primary screen). System: Drosophila JW18 cells infected with Wolbachia. Reagents: long dsRNA against Drosophila genes, 0.25 µg dsRNA per well of a 384-well plate. Duration: 5 days. Conditions: cells persistently infected with Wolbachia before knock-down; no added drug. Read-out: 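Imaged fluorescence in situ signal for Wolbachia 23S rRNA per DAPI-counted host cell, given as a robust z-score within each plate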. Reading the numbers: Wolbachia per cell robust z: higher = more Wolbachia per host cell than the plate typical. Rule for the call: 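Active if absolute robust z reaches 1.5 in two or more of three replicates, leaving out multi- or no-target dsRNAs, genes unexpressed in JW18 and A1 wells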.
In all, the deposit lists about 24,000 reagents; this is a random part of those with a known target gene and a result. Of all reagents, about 1,210 (5%) got an active call. 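Inactive calls also include excluded dsRNAs with several or no targets, genes unexpressed in JW18, and well A1, regardless of score.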 A number with no mark means an inactive call. A plus sign joins genes that one reagent is predicted to hit. Reagent sequences are not shown.

target gene	PubChem SID	Wolbachia per cell robust z, rep 1	Wolbachia per cell robust z, rep 2	Wolbachia per cell robust z, rep 3
Spps (GeneID 42882)	SID104202563	-1.61	0.291	0.339
CG4467 (GeneID 42747)	SID104195377	-2.1	0.762	1.02
wun2 (GeneID 53558)	SID104187358	0.88	0.0676	1.02
CG3909 (GeneID 41226)	SID104193942	-1.51	-0.00763	0.0933
CG14965 (GeneID 38388)	SID104188216	0.82	-0.0531	-0.463
CG17134 (GeneID 34494)	SID104182375	1.12	0.216	-0.654
CG14687 (GeneID 41297)	SID104194702	-0.585	-2.01	-0.497
CG14687 (GeneID 41297)	SID104208183	-0.0281	0.46	-0.186
CG32281 (GeneID 317953)	SID104188028	-1.01	0.655	1.17
rudhira (GeneID 32136)	SID104201672	0.838	-0.634	-0.365
rudhira (GeneID 32136)	SID104202501	0.855	0.565	0.76
rudhira (GeneID 32136)	SID104203446	-0.61	-2.18	-1.2
SelR (GeneID 41309)	SID104195863	-0.634	-0.493	0.214
Prosalpha4 (GeneID 32584)	SID104200063	2.03 (active)	1.71	1.23
Prosalpha4 (GeneID 32584)	SID104203833	0.873	1.3	0.864
Dgat2 (GeneID 35719)	SID104186595	-5.97	-4.8	-3.11
His3.3B (GeneID 31848)	SID104197565	-0.422	-0.758	-1.11
His3.3B (GeneID 31848)	SID104198465	0.924	1.34	-0.164
His3.3B (GeneID 31848)	SID104206924	0.339	-0.137	-0.0577
His3.3B (GeneID 31848)	SID104207252	-1.41	-0.839	-0.928
dsx-c73A (GeneID 39831)	SID104189227	-0.884	-4.98	-0.42
dsx-c73A (GeneID 39831)	SID104189706	0.467	-0.156	0.601
dsx-c73A (GeneID 39831)	SID104190221	-4.03	-0.426	0.178
LysRS (GeneID 31904)	SID104197616	0.237	0.751	1.01
LysRS (GeneID 31904)	SID104204162	-0.0445	-1.23	0.0756
CG14931 (GeneID 34588)	SID104182205	1.09	-0.359	1.13
CG9757 (GeneID 41662)	SID104196349	-1.41	-6.8	-1.17
CG9757 (GeneID 41662)	SID104201383	0.514	-0.103	0.936
CG9757 (GeneID 41662)	SID104204165	-0.2	3.74	0.591

Looked up above.
CG9757 (GeneID 41662) [SID104201383], Wolbachia per cell robust z, rep 2 → -0.103
Result of LysRS (GeneID 31904) [SID104197616] in “Wolbachia per cell robust z, rep 2”: 0.751

The list goes on:
target gene	PubChem SID	Wolbachia per cell robust z, rep 1	Wolbachia per cell robust z, rep 2	Wolbachia per cell robust z, rep 3
Obp58b (GeneID 37607)	SID104183953	-1.03 (active)	-2.77	-3.4
VhaAC39-1 (GeneID 31342)	SID104198034	0.107	-1.14	-0.644
VhaAC39-1 (GeneID 31342)	SID104206152	0.137	1.12	1.85
CG9410 + CG15908	SID104184793	-0.191	-7.11	0.237
Ciao1 (GeneID 36655)	SID104185962	-5.83	-0.815	-0.137
FAM21 (GeneID 37331)	SID104186415	0.106	0.711	-0.207
FAM21 (GeneID 37331)	SID104205133	0.725	-0.0137	0.129
FAM21 (GeneID 37331)	SID104216609	0.08	0.527	-1.18
Or46a + asRNA:CR43467	SID104201297	0.632	-1.55	0.0566
Sfp77F (GeneID 8674043)	SID104218215	-2.4	-1.45	0.206
Loxl2 (GeneID 37485)	SID104184261	0.422	-0.267	-1.48
Nup188 (GeneID 36397)	SID104201478	-0.0884	-0.133	-0.34
Nup188 (GeneID 36397)	SID104208481	-7.79	-0.427	-0.497
CG12075 (GeneID 31815)	SID104197593	0.111	-0.424	-0.631
CG12075 (GeneID 31815)	SID104203803	-0.896	-0.022	-0.0967
CR41501 (GeneID 5740839)	SID104216436	-5.79	-0.0311	-0.468
CG5835 (GeneID 42296)	SID104195678	-0.719	0.494	0.535
CG5835 (GeneID 42296)	SID104205959	-0.869	-1.22	0.155
CG5835 (GeneID 42296)	SID104218839	1.02	-0.0281	0.359
